Results: publication PMC3447402, “Structural characterization and comparison of three acyl-carrier-protein synthases from pathogenic bacteria” (Acta Crystallographica Section D: Biological Crystallography, 2012)

Molecular target: the molecule itself

B1: acyl-carrier-protein synthase (AcpS) from Bacillus anthracis (enzyme)
chain: MIVGIGIDIIELNRIEKMLDGKLKFMERILTENERNVAKGLKGSRLTEFVAGRFAAKEAYSKAVGTGIGKEVSFLDIEVRNDDRGKPILITSTEHIVHLSISHSKEFAVAQVVLESSSS
modifications: selenomethionine (SeMet protein)
Q: How did the “stoichiometry N” value turn out when B1 was run?
A: The value was 3.
